A mixed list of measured activities; the numbers were collected in NIAID ChemDB.

Blank or dashed fields: not listed here. MIC bound comes from a single tested concentration. Inhibition is in % at the dose shown (toxicity tests: loss of growth or viability). A number after MIC or MFC names an inhibition level or a share of isolates. Lines come from different laboratories, so protocols vary. ICn: concentration for n% inhibition.

smiles	test	agent	strain or isolate	cells	target	read by	measure	tested at	result
CN1CNC(=O)NC1	culture	Mycobacterium tuberculosis	H37Rv				MIC		>100 µg/mL
Cn1c([N+](=O)[O-])cnc1/C=C1\CCc2cc(OCCN3CCCC3)ccc2C1=O	culture	Mycobacterium tuberculosis	H37Rv			resazurin	inhibition	6.25 µg/mL	-6%
O=[N+]([O-])c1ccc(O)c([N+](=O)[O-])c1	culture	Mycobacterium tuberculosis	H37Rv				MIC		100 µg/mL
CCCCCC(=O)N1SC(NC(=O)OC)=Nc2ccccc21	culture	Mycobacterium tuberculosis	H37Rv			BACTEC	inhibition	12.5 µg/mL	16%
O=C(Nc1ccc(S(=O)(=O)[O-])c2cccc(S(=O)(=O)[O-])c12)c1ccccc1	culture	Rhinovirus		Human amnion AV3 cells		cytopathic effect	inhibition	10 µg/mL	0%
CCN(CC)CCCC(C)Nc1cc(-c2cccc(Cl)c2)nc2ccc(C)cc12	culture	Mycobacterium tuberculosis	H37Rv				MIC		>100 µg/mL
CC/C=C(C)/C=N/NC(=O)c1ccc[n+](C)c1.Cc1ccc(S(=O)(=O)O)cc1	culture	Mycobacterium tuberculosis	H37Rv			BACTEC	MIC bound		>12.5 µg/mL
CC(=O)NCCNS(=O)(=O)c1ccccc1	culture	Mycobacterium tuberculosis	H37Rv				MIC		100 µg/mL
CC(=O)c1ccc(NC(=O)/C(CC(=O)c2sc(-c3cccnc3)nc2C)=N\NC(N)=O)cc1	culture	Mycobacterium tuberculosis	H37Rv			BACTEC	MIC bound		>12.5 µg/mL
Cc1cccc(-c2cncc(N3CCN(c4ccccc4F)CC3)n2)c1C	target	Cytomegalovirus			UL97 kinase		IC50		<100 µM
Nc1ccc(C(=O)Nc2cc(S(=O)(=O)O)cc3cc(S(=O)(=O)O)c(N)c(O)c23)cc1	culture	Mycobacterium tuberculosis	H37Rv				MIC		>100 µg/mL
Fc1ccc(N2CCCCC2)c(NC(=S)c2ccncc2)c1	host protein				CDK4	kinase activity	inhibition	10 µM	1.8%
CCCCOCC(O)CO	culture	Mycobacterium tuberculosis	H37Rv				MIC		50 µg/mL
O=C(O)C(NCCNC(C(=O)O)c1ccccc1)c1ccccc1	culture	Mycobacterium tuberculosis	H37Rv				MIC bound		>6.25 µg/mL
O=S(=O)([O-])c1cccc(O)c1	culture	Herpes simplex virus		Human amnion AV3 cells		cytopathic effect	inhibition	50 µg/mL	45%
CCCCCCCCCCCCCCC(=O)Nc1ccccc1	culture	Mycobacterium tuberculosis	H37Rv				MIC		>100 µg/mL
Nc1ccc2c(n1)NCC/C2=N\Nc1ccc(F)cc1	culture	Mycobacterium tuberculosis	H37Rv			BACTEC	MIC		≥12.5 µg/mL
COc1ccc(N2CCN(c3cncc(-c4ccccc4)n3)CC2)cc1	target	Cytomegalovirus			UL97 kinase		IC50		<100 µM
Cc1ccc(C(=O)Nc2ccc(S(=O)(=O)O)c3cc(S(=O)(=O)O)cc(S(=O)(=O)O)c23)cc1NC(=O)c1cccc(NC(=O)Nc2cccc(C(=O)Nc3cc(C(=O)Nc4ccc(S(=O)(=O)O)c5cc(S(=O)(=O)O)cc(S(=O)(=O)O)c45)ccc3C)c2)c1	culture	Adenovirus	TYPE 3	Human embryonic lung cells		cytopathic effect	inhibition	50 µg/mL	0%
Nc1c(O)cc(S(=O)(=O)O)c2ccccc12	culture	Mycobacterium tuberculosis	H37Rv				MIC		100 µg/mL
COc1ccc2[nH]c(=O)c(CO)c(CO)c2c1	culture	Mycobacterium tuberculosis	H37Rv			BACTEC	MIC bound		>12.5 µg/mL
Cc1c(Cl)cc(Cl)cc1C(=O)c1ccccc1C(=O)O	culture	Mycobacterium tuberculosis	H37Rv				MIC		100 µg/mL
COc1cc(Nc2cncc(-c3cccc(F)c3)n2)cc(OC)c1OC	target	Cytomegalovirus			UL97 kinase		IC50		<10 µM
COC(=O)CCCC(=O)O	culture	Mycobacterium tuberculosis	H37Rv				MIC		>100 µg/mL
COc1ccc(C(=O)C(c2ccc(OC)cc2)C2(O)C(=O)Nc3c(C)cc(Cl)cc32)cc1	culture	Mycobacterium tuberculosis	H37Rv			resazurin	inhibition	6.25 µg/mL	91%
Nc1ccc(S(=O)(=O)[O-])c2c(S(=O)(=O)[O-])ccc(O)c12	culture	Herpes simplex virus		Human conjunctiva cells		cytopathic effect	inhibition	50 µg/mL	0%
O=C(CN1CCN(CC(=O)c2ccc(Cl)cc2)CC1)c1ccc(Cl)cc1	culture	Mycobacterium tuberculosis	H37Rv			BACTEC	MIC		≥12.8 µg/mL
CCCCCc1ccc(OC(C)C(=O)Nc2ccc(NC(=O)CC(=O)c3ccccc3OC)cc2)cc1	culture	Mycobacterium tuberculosis	H37Rv				MIC		50 µg/mL
CCCCCCCCC/C=N/NC(=O)C(=O)N/N=C/CCCCCCCCC	culture	Mycobacterium tuberculosis	H37Rv			BACTEC	MIC bound		>12.5 µg/mL
C=CCc1ccc(O)c(OC)c1	culture	Candida tropicalis	2509			turbidity	MIC90		495 µg/mL
CSC(=S)N/N=C/c1nccc(-c2ccccc2)c1C	culture	Mycobacterium tuberculosis	H37Rv			BACTEC	MIC bound		≤128 µg/mL
O=c1ccc(Cl)c[nH]1	culture	Mycobacterium tuberculosis	H37Rv				MIC		>100 µg/mL
NC(=O)c1cccnc1	culture	Mycobacterium tuberculosis	H37Rv			BACTEC	MIC		≥12.5 µg/mL
c1ccc(C2CCN(c3cncc(-c4cccc5ccccc45)n3)CC2)cc1	target	Cytomegalovirus			UL97 kinase		IC50		<100 µM
COCC(=O)OC1CCn2c1nc1c2C(=O)C(C)=C(NC(C)=O)C1=O	culture	Mycobacterium tuberculosis	H37Rv			BACTEC	inhibition	12.5 µg/mL	0%
COc1ccc(N2CCN(c3cncc(-c4ccc(C(F)(F)F)cc4)n3)CC2)cc1OC	target	Cytomegalovirus			UL97 kinase		inhibition	1 µM	<50%
O=C(O)CCCCCC(=O)O	culture	Mycobacterium tuberculosis	H37Rv				MIC		>100 µg/mL
Cc1cc(-c2ccc(N=Nc3ccc4c(S(=O)(=O)O)cc(S(=O)(=O)O)c(N)c4c3O)c(C)c2)ccc1N=Nc1ccc2c(S(=O)(=O)O)cc(S(=O)(=O)O)c(N)c2c1O	culture	Rhinovirus		Human amnion AV3 cells		cytopathic effect	inhibition	10 µg/mL	0%
COC(=O)[C@@]12OC[C@]34C([C@@H](O)[C@@H]1O)[C@@]1(C)CC(=O)C(O)=C(C)[C@@H]1C[C@H]3OC(=O)[C@H](OC(=O)/C=C(\C)C(C)(C)O)[C@@H]24	culture	Mycobacterium tuberculosis	H37Rv			BACTEC	inhibition	12.5 µg/mL	5%
O=C1c2c(Cl)ccc(Cl)c2C(=O)c2c(Cl)ccc(Cl)c21	culture	Mycobacterium tuberculosis	H37Rv				MIC		100 µg/mL
CC1CCCCN1/N=N/c1nc2c([nH]1)c(=O)n(C)c(=O)n2C	culture	Mycobacterium tuberculosis	H37Rv			resazurin	inhibition	6.25 µg/mL	-3%
c1ccc(-c2cncc(N3CCN(c4ccncc4)CC3)n2)cc1	target	Cytomegalovirus			UL97 kinase		inhibition	1 µM	<50%
O=S(=O)([O-])c1ccc(NS(=O)(=O)c2ccccc2)c2c(S(=O)(=O)[O-])cccc12	culture	Rhinovirus		Human amnion AV3 cells		cytopathic effect	inhibition	10 µg/mL	43%
O=c1[nH][nH]c(=O)c(Cl)c1Cl	culture	Mycobacterium tuberculosis	H37Rv			resazurin	inhibition	6.25 µg/mL	-23%
Cc1cc(C)c(CNC(=O)c2ccccc2)c(C)c1	culture	Mycobacterium tuberculosis	H37Rv				MIC		50 µg/mL
COc1ccc(-c2cncc(N3CCN(c4ccccn4)CC3)n2)cc1OC	target	Cytomegalovirus			UL97 kinase		inhibition	1 µM	<50%
Nc1cc(O)c(C(=O)O)c(O)c1	culture	Mycobacterium tuberculosis	H37Rv				MIC		100 µg/mL
Clc1cccc(N2CCN(c3cncc(-c4ccsc4)n3)CC2)c1	target	Cytomegalovirus			UL97 kinase		IC50		<100 µM
CN(CCO)C1=CC(=O)C(N2c3ccccc3Nc3cc(O)c(N(C)CCO)cc32)=CC1=O	culture	Mycobacterium tuberculosis	H37Rv			BACTEC	MIC bound		>12.5 µg/mL
COc1ccc(N2CCN(c3cncc(-c4cc5ccccc5s4)n3)CC2)cc1	target	Cytomegalovirus			UL97 kinase		inhibition	1 µM	<50%
O=C(O)c1ccc(I)cc1O	culture	Mycobacterium tuberculosis	H37Rv				MIC		>100 µg/mL

The first 4 rows once more:

smiles | test | agent | strain or isolate | cells | target | read by | measure | tested at | result
CN1CNC(=O)NC1 | culture | Mycobacterium tuberculosis | H37Rv |  |  |  | MIC |  | >100 µg/mL
Cn1c([N+](=O)[O-])cnc1/C=C1\CCc2cc(OCCN3CCCC3)ccc2C1=O | culture | Mycobacterium tuberculosis | H37Rv |  |  | resazurin | inhibition | 6.25 µg/mL | -6%
O=[N+]([O-])c1ccc(O)c([N+](=O)[O-])c1 | culture | Mycobacterium tuberculosis | H37Rv |  |  |  | MIC |  | 100 µg/mL
CCCCCC(=O)N1SC(NC(=O)OC)=Nc2ccccc21 | culture | Mycobacterium tuberculosis | H37Rv |  |  | BACTEC | inhibition | 12.5 µg/mL | 16%